# Results taken from US20240109955A1 (published 2024).
# Where a chain is given by its changes, count along the chain named.
# B1: combination of MX830 and MX831 (other)
# chain 1: QTVVTQEPSFSVSPGGTVTLTCGLSSGSVSTAYFPSWYQQTPGQAPRTLIYGTNTRSSGVPDRFSGSILGNKAALTITGAQADDESDYYCVLYMGRGIVVFGGGTKLTVLGGSSGEIVLTQSPGTLSLSPGERATLSCRASQSVSSSYLAWYQQKPGQAPRLLIYSASSRATGIPDRFSGSGSGTDFTLTISRLEPEDFAVYFCQQYGGLTGWTFGQGTKVEIKGGGGSGGSGSGGGGSASGSGQMQLVQSGPEVKKPGTSVKVSCKASGFTFTSSAVQWVRQRQRLEWIGWIVVGSGNTNYAQKFQERVTITRDMSTSTAYMELSSLRSEDTAVYYCAAPNCSNVVCYDGFDIWGQGTMVTVSSGGSSGQVQLVESGGGVVQPGRSLRLSCAASGFTLSSYGMHWVRQAPGKGLEWVAVISYDGSNKYYVDSVKGRFTISRDNSKNTLYLQMNSLRAEDTAVYYCRWAYWELLPDYYYGMDVWGQGTTVTVSSASGGSGDKTHTCPPCPAPELLGGPSVFLFPPKPKDTLMISRTPEVTCVVVDVSHEDPEVKFNWYVDGVEVHNAKTKPREEQYNSYVVSVLTVLHQDWLNGKEYKCKVSNKALPAPIEKTISKAKGQPREPQVYTLPPSRDELTKNQVSLTCLVKGFYPSDIAVEWESNGQPENNYKTTPPVLDSDGSFFKKLTVDKSRWQQGNVFSCSVLHEALHSHYTQKSLSLSPG
# chain 2: DIQMTQSPSSVSASVGDRVIITCRASQGISSWLAWYQQKPGKAPKVLIYDASSLQSGVPSRFSGSGYGTDFTLTISSLQPEDSATYYCQQAKSFPITFGQGTRLEIKGGSSGEIVLTQSPGTLSLSPGERATLSCRASQSVSSSYLAWYQQKPGQAPRLLIYSASSRATGIPDRFSGSGSGTDFTLTISRLEPEDFAVYFCQQYGGLTGWTFGQGTKVEIKGGGGSGGSGSGGGGSASGSGQMQLVQSGPEVKKPGTSVKVSCKASGFTFTSSAVQWVRQRQRLEWIGWIVVGSGNTNYAQKFQERVTITRDMSTSTAYMELSSLRSEDTAVYYCAAPNCSNVVCYDGFDIWGQGTMVTVSSGGSSGQVQLVESGGGVVQPGRSLRLSCAASGFTFSSYAFHWVRQAPGKGLEWVAVISYDGSNQYYADSVKGRFTISRDNSKNTLYLQMNSLRADDTAVYYCARDLAIAVAGTWHYYNGMDVWGQGTTVTVSSASGGSGDKTHTCPPCPAPELLGGPSVFLFPPKPKDTLMISRTPEVTCVVVDVSHEDPEVKFNWYVDGVEVHNAKTKPREEQYNSYVVSVLTVLHQDWLNGKEYKCKVSNKALPAPIEKTISKAKGQPREPQVYTLPPSRDELTKNQVSLTCLVKGFYPSDIAVEWESNGQPENNYKTTPPVLDSDGSFFKKLTVDKSRWQQGNVFSCSVLHEALHSHYTQKSLSLSPG
# B2: A23-58.1HC/58.1LC_93VGLTG (antibody, V domains shown)
# VH: QMQLVQSGPEVKKPGTSVKVSCKASGFTFTSSAVQWVRQRQRLEWIGWIVVGSGNTNYAQKFQERVTITRDMSTSTAYMELSSLRSEDTAVYYCAAPNCSNVVCYDGFDIWGQGTMVTVSS
# VL: EIVLTQSPGTLSLSPGERATLSCRASQSVSSSYLAWYQQKPGQAPRLLIYSASSRATGIPDRFSGSGSGTDFTLTISRLEPEDFAVYFCQQYVGLTGWTFGQGTKVEIK
# B3: MX835 tetravalent, trispecific antibody (A23-58H/A23-58L94GLTG, A19-46, A23-58H/A23-58L94GLTG, A19-61) (trispecific antibody)
# chain 1: B1 chain 1 with S632C, T644W
# chain 2: EIVLTQSPGTLSLSPGERATLSCRASQSVSSSYLAWYQQKPGQAPRLLIYSASSRATGIPDRFSGSGSGTDFTLTISRLEPEDFAVYFCQQYGGLTGWTFGQGTKVEIKGGSSGDIQMTQSPSSVSASVGDRVIITCRASQGISSWLAWYQQKPGKAPKVLIYDASSLQSGVPSRFSGSGYGTDFTLTISSLQPEDSATYYCQQAKSFPITFGQGTRLEIKGGGGSGGSGSGGGGSASGSGQVQLVESGGGVVQPGRSLRLSCAASGFTFSSYAFHWVRQAPGKGLEWVAVISYDGSNQYYADSVKGRFTISRDNSKNTLYLQMNSLRADDTAVYYCARDLAIAVAGTWHYYNGMDVWGQGTTVTVSSGGSSGQMQLVQSGPEVKKPGTSVKVSCKASGFTFTSSAVQWVRQRQRLEWIGWIVVGSGNTNYAQKFQERVTITRDMSTSTAYMELSSLRSEDTAVYYCAAPNCSNVVCYDGFDIWGQGTMVTVSSASGGSGDKTHTCPPCPAPELLGGPSVFLFPPKPKDTLMISRTPEVTCVVVDVSHEDPEVKFNWYVDGVEVHNAKTKPREEQYNSYVVSVLTVLHQDWLNGKEYKCKVSNKALPAPIEKTISKAKGQPREPQVCTLPPSRDELTKNQVSLSCAVKGFYPSDIAVEWESNGQPENNYKTTPPVLDSDGSFFLVSKLTVDKSRWQQGNVFSCSVLHEALHSHYTQKSLSLSPG
# Assays:
# Test in all cases: cell-based or functional assay
# [1] = target: SARS-CoV-2 spike (S) protein of Omicron sublineage BA.2.75 (G446S) (SARS-CoV-2, UniProt P0DTC2 14-1273)
# [2] = target: SARS-CoV-2 spike (S) protein of Omicron sublineage BQ.1.1 (R346T, K444T, F486V) (SARS-CoV-2, UniProt P0DTC2 14-1273)
# [3] = target: SARS-CoV-2 spike (S) protein of Omicron sublineage BJ.1 (R346T, V445P, G446S) (SARS-CoV-2, UniProt P0DTC2 14-1273)
Binder,"IC50, pseudovirus neutralization [1] [nM]","IC80, pseudovirus neutralization [1] [nM]","IC50, pseudovirus neutralization [2] [nM]","IC80, pseudovirus neutralization [2] [nM]","IC50, pseudovirus neutralization [3] [nM]","IC80, pseudovirus neutralization [3] [nM]"
B1,1,2,261,878,6,29
B2,,1,7,28,,2
B3,1,2,369,1620,2,23
